PubChem BioAssay AID1224833, University of Georgia – 2016
This is a random part of about 12,000 reagents tested. In the full data, about 5,600 (46%) are marked active. 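Active calls cover z-scores past 1 in both directions, so they include lowered as well as raised rotavirus replication.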 Unmarked entries are inactive. No sequences are given here.

Test: 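Human genes whose knock-down alters rotavirus replication in monkey cells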 (primary screen)
System: monkey MA104 kidney cells
Reagents: siRNA pool against human genes, 50 nM
Time to read-out: 48 h knock-down before infection; read 24 h after infection
Challenge: infection with rotavirus strain RV3 two days after transfection; infectious dose for this stage not given
Measurement: 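z-score of rotavirus antigen signal per well, from a fluorescent immunoassay, relative to non-targeting control wells on the same plate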
Reading the numbers: z-score vs non-targeting control: higher = more rotavirus replication than with non-targeting control
Active means: In these data the active calls have z-score vs non-targeting control at about -1 or lower, or at about 1 or higher
Calls: active = z-score beyond 1 either way; inactive = z-score within 1 of zero

gene | z-score vs non-targeting control
XAGE5 (GeneID 170627) | -0.561
UNC13B (GeneID 10497) | -1.82 (active)
TAS1R3 (GeneID 83756) | -1.14 (active)
DDRGK1 (GeneID 65992) | 0.261
VILL (GeneID 50853) | -0.479
GPR22 (GeneID 2845) | -2.03 (active)
ARID5A (GeneID 10865) | -1.37 (active)
TMEM74B (GeneID 55321) | 1.64 (active)
MZF1 (GeneID 7593) | 2.05 (active)
PLA2G5 (GeneID 5322) | -0.57
NPM1 (GeneID 4869) | -1.08 (active)
USH1G (GeneID 124590) | -0.534
PSMB9 (GeneID 5698) | 0.899
FURIN (GeneID 5045) | 1.91 (active)
TPR (GeneID 7175) | -1.04 (active)
OPA1 (GeneID 4976) | 0.84
ZNF345 (GeneID 25850) | -3.35 (active)
L3MBTL3 (GeneID 84456) | -1.07 (active)
OR12D2 (GeneID 26529) | -2.09 (active)
ZNF69 (GeneID 7620) | 0.46
FCGR1BP (GeneID 2210) | -0.861
GRM1 (GeneID 2911) | -0.866
ODAD4 (GeneID 83538) | -1.76 (active)
SF3B2 (GeneID 10992) | 0.951
DPCD (GeneID 25911) | 0.62
RIN3 (GeneID 79890) | -0.925
ADRB1 (GeneID 153) | -1.85 (active)
HS3ST5 (GeneID 222537) | 1.55 (active)
GKN2 (GeneID 200504) | -0.147
SPINK1 (GeneID 6690) | -1.63 (active)
PKP4 (GeneID 8502) | -0.0901
NXT1 (GeneID 29107) | -1.34 (active)
RIPOR2 (GeneID 9750) | 0.186
ZNF134 (GeneID 7693) | -0.563
MATN1 (GeneID 4146) | 0.64
EAPP (GeneID 55837) | 0.637
SH3GL2 (GeneID 6456) | -1.19 (active)
OTUD5 (GeneID 55593) | 0.825
SMAD9 (GeneID 4093) | -1.06 (active)
SPMIP2 (GeneID 152940) | 0.713
PSMB2 (GeneID 5690) | 1.78 (active)
LRBA (GeneID 987) | -1.27 (active)
SLC1A1 (GeneID 6505) | -0.5
DAZ2 (GeneID 57055) | -0.749
PRKRA (GeneID 8575) | 0.195
GDNF (GeneID 2668) | -1.32 (active)
OR5W2 (GeneID 390148) | -0.0172
MFGE8 (GeneID 4240) | -0.73
AKR1B10 (GeneID 57016) | 1.88 (active)
EPB41L2 (GeneID 2037) | -1.55 (active)
HYLS1 (GeneID 219844) | -0.486
CFHR4 (GeneID 10877) | -1.33 (active)
HDHD5 (GeneID 27440) | -1.38 (active)
MAN2B1 (GeneID 4125) | 0.616
SIGLECL1 (GeneID 284369) | -0.908
MYT1L (GeneID 23040) | -1.41 (active)
RBMX (GeneID 27316) | -0.477
SERPINA1 (GeneID 5265) | 0.962
DNAJC5B (GeneID 85479) | -1.29 (active)

Records above whose gene name starts with O or o:
gene | z-score vs non-targeting control
OPA1 (GeneID 4976) | 0.84
OR12D2 (GeneID 26529) | -2.09 (active)
ODAD4 (GeneID 83538) | -1.76 (active)
OTUD5 (GeneID 55593) | 0.825
OR5W2 (GeneID 390148) | -0.0172

Additional records follow.
gene | z-score vs non-targeting control
CER1 (GeneID 9350) | 0.131
PCDH11X (GeneID 27328) | -2.14 (active)
HAGH (GeneID 3029) | -1.54 (active)
SMAP1 (GeneID 60682) | -1.1 (active)
AIG1 (GeneID 51390) | -1.05 (active)
RTN4RL1 (GeneID 146760) | -0.321
ZFYVE26 (GeneID 23503) | 0.89
PCNP (GeneID 57092) | 0.531
PCDH10 (GeneID 57575) | 0.0187
TSPAN16 (GeneID 26526) | 1.01 (active)
CDH10 (GeneID 1008) | -2.37 (active)
RRN3 (GeneID 54700) | -0.609
TOX4 (GeneID 9878) | 0.906
IDH1 (GeneID 3417) | 1.02 (active)
LPAR1 (GeneID 1902) | -0.671
SAYSD1 (GeneID 55776) | -0.248
SLC22A23 (GeneID 63027) | 0.963
PTGER3 (GeneID 5733) | -1.17 (active)
SEMA3C (GeneID 10512) | -1.39 (active)
NUP93 (GeneID 9688) | -0.315
ZDHHC3 (GeneID 51304) | -0.694
SPOCK3 (GeneID 50859) | 0.244
XCL2 (GeneID 6846) | 0.538
SLC45A3 (GeneID 85414) | 0.976
SUN3 (GeneID 256979) | 0.693
NMNAT3 (GeneID 349565) | -0.597
ALDH3B1 (GeneID 221) | -1.92 (active)
PIGA (GeneID 5277) | -0.944
HSP90B1 (GeneID 7184) | -0.597
KRT18 (GeneID 3875) | 2.09 (active)
NSUN2 (GeneID 54888) | -0.531
FAM131A (GeneID 131408) | 0.576
SEC13 (GeneID 6396) | 1.32 (active)
C11orf16 (GeneID 56673) | -1.06 (active)
APMAP (GeneID 57136) | -0.81
MED17 (GeneID 9440) | -0.553
PDLIM4 (GeneID 8572) | 0.45
RANBP6 (GeneID 26953) | -0.155
LMNTD2 (GeneID 256329) | 0.572
TXNDC5 (GeneID 81567) | -0.664
NCKAP1 (GeneID 10787) | 0.0045
IRX6 (GeneID 79190) | -0.517
TMC4 (GeneID 147798) | -0.347
MORC2 (GeneID 22880) | -0.556
GALNT5 (GeneID 11227) | -2.57 (active)
ACTR10 (GeneID 55860) | 1.19 (active)
PLCD1 (GeneID 5333) | 1.35 (active)
SPARCL1 (GeneID 8404) | 2.36 (active)
SYNPO2 (GeneID 171024) | 0.565
DAZAP1 (GeneID 26528) | -1.34 (active)
PRB3 (GeneID 5544) | 0.774
GRM2 (GeneID 2912) | -2.13 (active)
MPHOSPH8 (GeneID 54737) | 0.985
NUF2 (GeneID 83540) | 0.382
DHRS7 (GeneID 51635) | -1.24 (active)
SLN (GeneID 6588) | -0.851
GIMAP5 (GeneID 55340) | -0.872
EQTN (GeneID 54586) | -1.56 (active)
NPAS4 (GeneID 266743) | -2.39 (active)
SEPTIN3 (GeneID 55964) | -0.922
SLC1A5 (GeneID 6510) | -0.72
NTSR2 (GeneID 23620) | 0.648
POLG (GeneID 5428) | 1.68 (active)
ARRDC1 (GeneID 92714) | 1.32 (active)
ZNF132 (GeneID 7691) | 2.12 (active)
ARV1 (GeneID 64801) | 0.112
ZNF548 (GeneID 147694) | -0.559
ZNG1F (GeneID 644019) | -1.16 (active)
FOSB (GeneID 2354) | 1.32 (active)
PSMC2 (GeneID 5701) | 1.38 (active)
RFTN1 (GeneID 23180) | -0.935
ESF1 (GeneID 51575) | -2.66 (active)
APPL1 (GeneID 26060) | 0.0684
MMP19 (GeneID 4327) | -3.72 (active)
PGRMC2 (GeneID 10424) | -0.94
SPATA31A3 (GeneID 727830) | 2.21 (active)
TM4SF20 (GeneID 79853) | -0.899
BTN2A2 (GeneID 10385) | -0.467
ULBP3 (GeneID 79465) | -0.361
LGALS9B (GeneID 284194) | -1.09 (active)
DPYS (GeneID 1807) | -0.786
